Pooled drug test results. Numbers come from NIAID ChemDB, via PubChem.

Common to all: tests in culture; agent: Influenza B virus; cell line: MDCK; measure: EC50

ECn is the concentration giving n% inhibition of infection, replication or growth. Rows are shuffled and stem from different studies. a–b is a range or a potency band. An empty or dashed field is not shown.

| structure | strain or isolate | read by | result |
|---|---|---|---|
| CC[C@H]1C2CCCC(C2N)[C@H]1C | - | plaque count | >100 µM |
| CCC | B/HONG KONG/8/73 | - | >50 µM |
| CC1=C(C)C2C(N)C1CCC2(C)C | - | plaque count | ~30 µM |
| CC(C)CS[C@H]1C[C@@H](n2cnc3c(N)ncnc32)[C@H](O)[C@@H]1O | - | cytopathic effect | >100 µg/mL |
| CCCCCCCNC(=O)O[C@@H]([C@@H]1OC(C(=O)O)=C[C@H](N)[C@H]1NC(=O)O)[C@H](C)CO | Victoria | plaque count | 0.27 µg/mL |
| CCC(CC)[C@H](NC(C)=O)[C@@H]1[C@H](O)[C@@H](C(=O)O)C[C@H]1N=C(N)N | B/HONG KONG/5/72 | - | 2.2 µM |
| CCN(C(=O)N1C[C@H](N)[C@](O)(C(=O)O)C1)C(C)C | B/HONG KONG/5/72 | cytopathic effect | 305 µM |
| CCC(CC)[C@H](NC(C)=O)[C@@H]1[C@H](O)[C@@H](C(=O)O)C[C@H]1N=C(N)N | LEE/40 | - | 3.2 µM |
| C[C@H](CO)[C@@H](OC(=O)NCCCCCCN)[C@@H]1OC(C(=O)O)=C[C@H](N=C(N)N)[C@H]1NC(=O)O | Victoria | plaque count | 0.009 µg/mL |
| Nc1nc(Cl)c(N)c(NCC2(CO)CCC2)n1 | B/GIFU/2/73 | plaque count | 9.7–47 µM |
| CCCN(CCC)C(=O)O[C@@H]([C@@H]1OC(C(=O)O)=C[C@H](N)[C@H]1NC(=O)O)[C@H](C)CO | Victoria | plaque count | 0.52 µg/mL |
| CC(O)CCCCCC(CCCCCCCCCCCCCC1CC(=O)OC[C@H]2O[C@@H](OC(CCCCCCCCCCCC(CCCCCC(C)O)O[C@@H]3O[C@H](CO)[C@@H](O)[C@H](O)[C@H]3O)CC(=O)OC[C@@H]3O[C@H](O1)[C@@H](O)[C@H](O)[C@H]3O)[C@H](O)[C@@H](O)[C@@H]2O)O[C@@H]1O[C@H](CO)[C@@H](O)[C@H](O)[C@H]1O | B/LEE/40 | cytopathic effect | 3.3 µg/mL |
| Nc1nc(N)c(N)c(Cl)n1 | B/GIFU/2/73 | plaque count | >630 µM |
| Nc1ncnc2c1ccn2[C@@H]1C[C@H](O)[C@@H](O)[C@H]1O | Singapore/222/79 | - | >100 µg/mL |
| CON=C[C@H]1O[C@@H](n2cnc3c(N)ncnc32)[C@H](O)[C@@H]1O | Singapore | cytopathic effect | 4 µg/mL |
| CC12CCCC(CC1)C2N | - | plaque count | >100 µM |
| CCOc1ncn(-c2ccc(NC(=S)Nc3cnccn3)cc2)n1 | Singapore | cytopathic effect | >20 µg/mL |
| C=C[C@H](O)C1=C[C@@H](n2cnc3c(N)ncnc32)[C@H](O)[C@@H]1O | HONG KONG | cytopathic effect | >250 µg/mL |
| Nc1ccn([C@@H]2C[C@H](CO)[C@@H](O)[C@H]2O)c(=O)n1 | - | cytopathic effect | 4.5 µg/mL |
| CCCOc1ncn(-c2ccc(NC(=S)Nc3ncccn3)cc2)n1 | Singapore | cytopathic effect | >100 µg/mL |
| CCCCCCCNC(=O)O[C@@H]([C@@H]1OC(C(=O)O)=C[C@H](N=C(N)N)[C@H]1NC(=O)O)[C@H](C)CO | Victoria | plaque count | 0.023 µg/mL |
| N#CNc1nncs1 | B/GREAT LAKES/1739/54 | plaque count | 1.06 µg/mL |
| CC[C@H](O)C1=C[C@@H](n2cnc3c(N)ncnc32)[C@H](O)[C@@H]1O | HONG KONG | cytopathic effect | >250 µg/mL |
| CC1(CO)CCC(Cn2nnc3c(Cl)ncnc32)C1(C)C | HONG KONG/5/72 | cytopathic effect | 10 µg/mL |
| CC(=O)N[C@H]1[C@H]([C@H](O)[C@H](O)CO)OC(C(=O)O)=C[C@@H]1N=C(N)N | B/Harbin/07.94 | plaque count | 0.03 µM |
| Nc1nccc(NCC2(CO)CCC2)n1 | B/GIFU/2/73 | plaque count | >480 µM |
| CC(=O)N[C@H]1[C@H]([C@H](O)[C@H](O)CO)OC(C(=O)O)=C[C@@H]1N=C(N)N | Panama/45/90 | - | 1.3 µM |
| CC1=C(C)C2(C)CC[C@@H](C(C)C)C1C2N | - | plaque count | >50 µM |
| CC[C@@H](O)C1=C[C@@H](n2cnc3c(N)ncnc32)[C@H](O)[C@@H]1O | HONG KONG | cytopathic effect | >250 µg/mL |
| Nc1ncc(/C=N/O)c(NCC2(CO)CCC2)n1 | B/GIFU/2/73 | plaque count | 14–32 µM |
| CCOc1ncn(-c2ccc(NC(=S)NC3O[C@H](CO)[C@@H](O)[C@H](O)[C@H]3O)cc2)n1 | Singapore | cytopathic effect | >200 µg/mL |
| CC1(CO)CCC(Cc2nc3ncnc(N)c3[nH]2)C1(C)C | HONG KONG/5/72 | cytopathic effect | >250 µg/mL |
| CCON=C[C@H]1O[C@@H](n2cnc3c(N)ncnc32)[C@H](O)[C@@H]1O | Singapore | cytopathic effect | 1.2 µg/mL |
| CCC(CC)O[C@@H]1C=C(C(=O)O)C[C@H](N)[C@H]1NC(C)=O | Isolate G72 | plaque count | ≤0.01 µg/mL |
| CC1=C(C)C2CCCC1C2N | - | plaque count | >100 µM |
| CC(C)Oc1ccccc1CNC(=O)c1ccc2cnccc2n1 | - | cytopathic effect | 10 µM |
| N#Cc1cc(C#N)c2[nH]c3ccccc3n2c1=O | B/Singapore | plaque count | 80 µg/mL |
| CCCOc1ncn(-c2ccc(NC(=S)Nc3cnccn3)cc2)n1 | Singapore | cytopathic effect | >100 µg/mL |
| CC1=C(C)C2C(N)C1CC[C@@H]2C | - | plaque count | ~20 µM |
| Nc1nc2c(ncn2[C@@H]2O[C@H](CO)[C@@H](O)[C@H]2F)c(=O)[nH]1 | B/HONG KONG/73 | plaque count | 2.5 µM |
| CCCOc1ncn(-c2ccc(NC(=S)NC34CC5CC(CC(C5)C3)C4)cc2)n1 | Singapore | cytopathic effect | >100 µg/mL |
| C[C@@H]1C2CCCC(C2NCc2ccccc2)[C@@H]1C | - | plaque count | >50 µM |

5 of the rows above, restated:

structure | strain or isolate | read by | result
C[C@H](CO)[C@@H](OC(=O)NCCCCCCN)[C@@H]1OC(C(=O)O)=C[C@H](N=C(N)N)[C@H]1NC(=O)O | Victoria | plaque count | 0.009 µg/mL
N#Cc1cc(C#N)c2[nH]c3ccccc3n2c1=O | B/Singapore | plaque count | 80 µg/mL
CCC | B/HONG KONG/8/73 | - | >50 µM
CC1=C(C)C2(C)CC[C@@H](C(C)C)C1C2N | - | plaque count | >50 µM
CCC(CC)[C@H](NC(C)=O)[C@@H]1[C@H](O)[C@@H](C(=O)O)C[C@H]1N=C(N)N | B/HONG KONG/5/72 | - | 2.2 µM